Experimental data taken from publication PMC2885667.
The exact form of at least one protein or probe is not confirmed. For some of these results: Where cells or extracts were used, other partners may take part. For some of these results: At least one verdict rests on a figure or table, not on a statement of the authors.

Experiments:
[1] = target: PilG (native, inner membrane fraction) (Neisseria meningitidis H44/76) (UniProt Q7DDR1); test: South-western (solid-phase overlay); conditions: South-western: 0.25% gelatin, 0.5% BSA, 0.2% Triton X-100, 10 mM Tris/HCl, 5 mM beta-mercaptoethanol, 100 mM NaCl, pH 7.5; ~400 pmol biotinylated DNA; protein in an extract; single-stranded DNA
[2] = target: PilG (recombinant) (Neisseria meningitidis) (UniProt Q7DDR1); test: South-western (solid-phase overlay); conditions: South-western: 0.25% gelatin, 0.5% BSA, 0.2% Triton X-100, 10 mM Tris/HCl, 5 mM beta-mercaptoethanol, 100 mM NaCl, pH 7.5, ~400 pmol biotinylated DNA, recombinant protein, residues 1-410

Sequence	binding result [1]	binding result ([2]; single-stranded DNA)	binding result [2]
CAACAACAACAACAGCCGTCTGAACCAAATTCAGACGGCAACAACAACAACA [T1]	binds	binds	
CAACAACAACAACAGGCCTGTCATCCAAACTGACAGGCCAACAACAACAACA / TGTTGTTGTTGTTGGCCTGTCATTTTGGATGACAGGCCTGTTGTTGTTGTTG [T3T4]			binds
GTTGTTGTTGTTTTCAGACGGCATGTTGGTTCAGACGGCATTTGTTGTTGTT [HH8]		binds	
CAACAACAACAACAGCCGTCTGAACCAAATTCAGACGGCAACAACAACAACA (double strand) [T1T2]			binds
CAACAACAACAACAGGCCTGTCATCCAAACTGACAGGCCAACAACAACAACA [T3]		binds	
AACAACAACAAATGCCGTCTGAACCAACATGCCGTCTGAAAACAACAACAAC (double strand) [HH7,HH8]			binds
